Experimental findings from patent publication US11111484B2, “Streptococcus bacteriophage lysins for detection and treatment of gram positive bacteria” (priority 2011, dated 2021) are described below.

Assay [1] has as its system MRSA strains (Strain 245, 223, 926 and 932). The experiment in a line: log kill comparison PlySs2 versus vancomycin. The conditions noted are these: MHB, up to 6 hours; vancomycin 1 μg/ml.
Assay [2] shares this test system. Description: MIC of MRSA strains used for log kill comparison. The conditions noted are these: MRSA strains 245, 223, 926 and 932.

B1: PlySs2: Streptococcus suis prophage lysin, SEQ ID NO:3; N-terminal CHAP domain and C-terminal SH3-type 5 domain (protein, listed as Streptococcus suis)
chain: MTTVNEALNNVRAQVGSGVSVGNGECYALASWYERMISPDATVGLGAGVGWVSGAIGDTISAKNIGSSYNWQANGWTVSTSGPFKAGQIVTLGATPGNPYGHVVIVEAVDGDRLTILEQNYGGKRYPVRNYYSAASYRQQVVHYITPPGTVAQSAPNLAGSRSYRETGTMTVTVDALNVRRAPNTSGEIVAVYKRGESFDYDTVIIDVNGYVWVSYIGGSGKRNYVATGATKDGKRFGNAWGTFK
With B1, in assay [1], the “log kill versus vancomycin” value was “rapid and effective kill with enhanced activity versus standard-of-care antibiotic vancomycin”. In addition, the MIC result in assay [2] is reported as “approx 32 μg/ml”.
